Pooled drug test results. Numbers come from NIAID ChemDB, via PubChem.

Common to all: tests on isolated targets

Percent inhibition refers to the dose given; in toxicity tests it is the harm to the cells. Blank or dashed fields: not listed here. ICn is the concentration giving n% inhibition. Two numbers with a dash give a range or band. Conditions beyond the fields shown may differ between rows.

CC(C)N(CCCO)C(=O)N1CC(N)C(C(=O)O)C1 ; target: Neuraminidase ; organism: Influenza A virus ; read-out: IC50 ; strain: A/TOKYO/67 ; value: 2.1 µM
CN[C@@H]1CN(C(=O)N(C(C)C)C(C)C)C[C@@H]1C(=O)O ; target: Neuraminidase ; organism: Influenza A virus ; read-out: IC50 ; strain: A/TOKYO ; value: >50 µM
NC(=O)[C@H](Cc1ccc(O)c(/C=C/C(=O)O)c1)NC(=O)c1ccc2c(c1)nc(-c1ccoc1)n2C1CCCCC1 ; target: RNA-dependent RNA polymerase ; organism: Poliovirus ; read-out: IC50 ; value: >25 µM
CCCCCCCCCCCCCCCCCC(=O)OC[C@@H](COP(=O)(O)OCCNCCO[C@@]1(C(=O)O)O[C@@H]([C@H](O)[C@H](O)CO)[C@H](NC(C)=O)[C@@H](O)[C@H]1F)OC(=O)CCCCCCCCCCCCCCCCC ; target: Sialidase ; organism: Influenza A virus ; read-out: IC50 ; strain: H1N1 A/DUCK/36/4/76 ; value: 125 µM
CN(C)CCNC(=O)[C@H](Cc1c[nH]c2ccc(O)cc12)NC(=O)c1ccc2c(c1)nc(-c1ccoc1)n2C1CCCCC1 ; target: RNA-dependent RNA polymerase ; organism: Poliovirus ; read-out: IC50 ; value: >25 µM
CCCCCCCCCCCCCCCCCC(=O)OC[C@@H](COP(=O)(O)OCCNCCO[C@@]1(C(=O)O)O[C@@H]([C@H](O)[C@H](O)CO)[C@H](NC(C)=O)[C@@H](O)[C@H]1F)OC(=O)CCCCCCCCCCCCCCCCC ; target: Sialidase ; organism: Influenza A virus ; read-out: IC50 ; strain: H11N3 A/DUCK/HK/44/76 ; value: 250 µM
CCCCCCCCCCCCC/C=C/[C@@H](O)[C@H](CO[C@@H]1O[C@H](CO)[C@H](O)[C@H](OS(=O)(=O)O)[C@H]1O)NC(=O)CCCCCCCCCCCCCCCCCCCCCCC ; target: Sialidase ; organism: Influenza A virus ; dose: 200 µM ; read-out: inhibition ; strain: H2N2 A/JAPAN/305/57 ; value: 9.4%
CC(C)Nc1nc(C[C@H](Cc2ccc(OCC(=O)O)cc2)NC(=O)c2ccc3c(c2)nc(-c2ccoc2)n3C2CCCCC2)cs1 ; target: RNA-dependent RNA polymerase ; organism: Poliovirus ; read-out: IC50 ; value: >25 µM
CC(=O)NCC1C(N)C(C(=O)O)CN1C(=O)N(C)C ; target: Neuraminidase ; organism: Influenza A virus ; read-out: IC50 ; strain: A/TOKYO/67 ; value: 260 µM
O=C(N[C@H](C(=O)O)c1c[nH]c2ccc(O)cc12)c1ccc2c(c1)nc(-c1cccc(=O)[nH]1)n2C1CCCCC1 ; target: RNA-dependent RNA polymerase ; organism: Poliovirus ; read-out: IC50 ; value: >25 µM
CCN(C(=O)N1C[C@H](C(=O)O)[C@H](N)[C@H]1CNC(C)=O)C(C)C ; target: Neuraminidase ; organism: Influenza A virus ; read-out: IC50 ; strain: A/TOKYO/67 ; value: 4.4–69 µM
O=C(N[C@@H](Cc1c[nH]c2ccc(O)cc12)C(=O)O)c1ccc2c(c1)nc(-c1ccccn1)n2C1CCCCC1 ; target: RNA-dependent RNA polymerase ; organism: Poliovirus ; read-out: IC50 ; value: >25 µM
CC(C)N(C)C(=O)N1C[C@@H](N)[C@@H](C(=O)O)C1 ; target: Neuraminidase ; organism: Influenza A virus ; read-out: IC50 ; strain: A/TOKYO ; value: >50 µM
CCN(C(=O)N1C[C@@H](C(=O)O)[C@@H](N)[C@@H]1CNC(C)=O)C(C)C ; target: Neuraminidase ; organism: Influenza A virus ; read-out: Ki ; strain: A/TOKYO/67 ; value: 6.3 µM
COc1ccc(C[C@H](NC(=O)c2ccc3c(c2)nc(-c2ccoc2)n3C2CCCCC2)C(=O)O)cc1OC ; target: RNA-dependent RNA polymerase ; organism: Poliovirus ; read-out: IC50 ; value: >25 µM
CCN(C(=O)N1C[C@@H](C(=O)O)[C@@H](N)[C@H]1CNC(C)=O)C(C)C ; target: Neuraminidase ; organism: Influenza A virus ; read-out: Ki ; strain: A/TOKYO/67 ; value: 69 µM
Nc1nc(=O)c2ncn(CCOCP(=O)(O)O)c2c(=O)[nH]1 ; target: NTPase/helicase ; organism: Japanese encephalitis virus ; read-out: IC50 ; value: >500 µM
COC(=O)C1CC(C(=O)O)NC1CNC(C)=O ; target: Neuraminidase ; organism: Influenza A virus ; read-out: Ki ; strain: A/TOKYO/67 ; value: 0.9 µM
CC(C)N(C(=O)N1C[C@H](C(=O)O)[C@H](NC(=O)N(C)C)C1)C(C)C ; target: Neuraminidase ; organism: Influenza A virus ; read-out: IC50 ; strain: A/TOKYO ; value: >50 µM
O=C(O)c1cccc(CN2CCC(CNC(=O)c3ccc4c(c3)nc(-c3ccoc3)n4C3CCCCC3)CC2)c1 ; target: RNA-dependent RNA polymerase ; organism: Poliovirus ; read-out: IC50 ; value: >25 µM
CC(=O)NC(CC(C)C)C1NC(C(=O)[O-])CC1N ; target: Neuraminidase ; organism: Influenza A virus ; read-out: Ki ; strain: A/TOKYO/67 ; value: 6.2 µM

The first 3 rows once more:

structure | target | organism | dose | read-out | strain | value
CC(C)N(CCCO)C(=O)N1CC(N)C(C(=O)O)C1 | Neuraminidase | Influenza A virus |  | IC50 | A/TOKYO/67 | 2.1 µM
CN[C@@H]1CN(C(=O)N(C(C)C)C(C)C)C[C@@H]1C(=O)O | Neuraminidase | Influenza A virus |  | IC50 | A/TOKYO | >50 µM
NC(=O)[C@H](Cc1ccc(O)c(/C=C/C(=O)O)c1)NC(=O)c1ccc2c(c1)nc(-c1ccoc1)n2C1CCCCC1 | RNA-dependent RNA polymerase | Poliovirus |  | IC50 |  | >25 µM